Anti-infective test results gathered from many reports (values: NIAID ChemDB through PubChem).

All rows: tests in culture; organism: Candida albicans; read-out: MIC

Blank or dashed fields: not listed here.

Cc1ccc2nc(Sc3ccc(Cl)cc3)c(C3C(C#N)=C(N)Oc4c3c(=O)oc3ccccc43)cc2c1 ; strain: MTCC 227 ; read by: broth dilution ; value: >1000 µg/mL
S=C([S][Sn]([Cl])([Cl])[S]C(=S)N1CCCC1)N1CCCC1 ; strain: Drug-resistant isolate ; value: 2.5 µg/mL
CN1CCN(c2nc(Cl)nc(NC3CC3)n2)CC1 ; strain: MTCC 183 ; read by: agar ; value: 200 µg/mL
CCN1CC(c2ccccc2)NC(C#N)=C1C#N ; strain: RCPF Y-401/NCTC 885-653 ; read by: broth dilution / visual reading ; value: >100 µg/mL
CC1=COC2OC3(C)CCC4[C@H](C)CCC1[C@@]24O3 ; strain: ATCC 90028 ; value: >50 µg/mL
N#CC1=C(N)Oc2c(c(=O)oc3ccccc23)C1c1cc2ccccc2nc1Sc1ccc(Cl)cc1 ; strain: MTCC 227 ; read by: broth dilution ; value: >1000 µg/mL
CC(C)=CCC/C(C)=C/CCC(C)=CCCC[n+]1ccc(N(C)C)cc1.O=C([O-])C(F)(F)F ; strain: CCH442 ; value: 3.3 µM
c1cc2c[n+](c1)CCCCCCCCCCCCCCc1ccc[n+](c1)CCCCCCCCCCCCC2 ; strain: ATCC 10231 ; value: 0.7 µg/mL
CCCCCN(CCCCC)Cc1cccc(/C=N/NC(=O)c2ccncc2)c1N ; strain: MTCC 8184 ; value: 3.12 µg/mL
Clc1nc(NC2CC2)nc(N2CCN(C(c3ccccc3)c3ccccc3)CC2)n1 ; strain: MTCC 183 ; read by: agar ; value: 100 µg/mL
CN1C(=S)NC(C)(C)C1=S ; strain: CA10 ; value: >100 µg/mL
CCN1CC(c2ccccc2)=NC(C#N)=C1C#N ; strain: RCPF Y-401/NCTC 885-653 ; read by: broth dilution / visual reading ; value: >100 µg/mL
C[C@H]1[C@@H](OC2CCC(O)CC2)O[C@@H]2O[C@]3(C)CC[C@H]4[C@H](C)CC[C@@H]1C24OO3 ; strain: ATCC 90028 ; value: >50 µg/mL
c1c[nH]cn1 ; strain: 505 ; value: >256 µg/mL
CCN1C(C#N)=C(C#N)N=C(c2ccccc2)C1/C=C/c1ccccc1 ; strain: RCPF Y-401/NCTC 885-653 ; read by: broth dilution / visual reading ; value: >100 µg/mL
Cc1ccc(-c2nc([N+]#N)c(C(=O)N3CCCC3)[nH]2)cc1 ; strain: ATCC 10231 ; value: 25 µg/mL
CO[C@H]1C[C@H](O[C@H]2CC[C@@]3(C)C(=CC[C@H]4C5=CC(=O)[C@@H]6[C@@H](C)OC(=O)[C@]56CC[C@@H]43)C2)O[C@H](C)[C@H]1O[C@H]1C[C@H](OC)[C@H](O[C@@H]2C[C@@H](OC)[C@@H](O[C@@H]3O[C@H](CO)[C@@H](O)[C@H](O)[C@H]3O)[C@H](C)O2)[C@@H](C)O1 ; strain: ATCC 2091 ; read by: broth dilution / turbidity ; value: >100 µg/mL
CCC[CH2][Sn]([CH2]CCC)([S]C(=S)N1CCCC1)[S]C(=S)N1CCCC1 ; strain: Drug-resistant isolate ; value: 2.5 µg/mL
CN1CCSC1=[Se] ; strain: CA10 ; value: 12 µg/mL
CC(C)=CCC/C(C)=C/CCC(C)=CCCC[n+]1ccccc1 ; strain: CCH442 ; value: 160 µM
C/C=C/c1ccc2oc(-c3ccc(O)cc3)c(C)c2c1 ; value: <256 µg/mL
O=C(O)c1ccc(/C=C/C(=O)c2ccc(Cl)cc2)cc1 ; strain: 1 clinical isolate ; value: >32 µg/mL
C[C@@H]1[C@H](O)[C@@H](C)/C=C/C=C/CC/C=C/C=C/C=C/C=C/C(O[C@H]2O[C@H](C)[C@@H](O)[C@H](N)[C@@H]2O)CC2O[C@](O)(CC(O)C(O)CCC(O)CC(O)CC(O)CC(=O)O[C@H]1C)CC(O)C2C(=O)O ; strain: ATCC 10231 ; value: 8 µg/mL
CN1CCC2=C(CCCC2CCc2ccc(Br)cc2)C1 ; strain: 2381E ; value: 16 µg/mL
O=c1c(O)c(-c2ccccc2)oc2cc(O)cc(O)c12 ; read by: broth dilution ; value: <80 µg/mL
C[C@@H]1[C@H](O)[C@@H](C)/C=C/C=C/CC/C=C/C=C/C=C/C=C/C(O[C@H]2O[C@H](C)[C@@H](O)[C@H](N)[C@@H]2O)CC2O[C@](O)(CC(O)C(O)CCC(O)CC(O)CC(O)CC(=O)O[C@H]1C)CC(O)C2C(=O)O ; strain: ATCC 2091 ; read by: broth dilution / turbidity ; value: 12.5 µg/mL
CN(C)Cc1cccc(/C=N/NC(=O)c2ccncc2)c1N ; strain: MTCC 8184 ; value: 25 µg/mL
O=C1/C(=C/c2ccccc2)CNC/C1=C\c1ccccc1 ; strain: 1 clinical isolate ; value: >32 µg/mL
COc1ccc2nc(Sc3ccc(C)cc3)c(C3C(C#N)=C(N)Oc4cc(C)oc(=O)c43)cc2c1 ; strain: MTCC 227 ; read by: broth dilution ; value: 500 µg/mL
CCCCN(CCCC)Cc1cccc(/C=N/NC(=O)c2ccncc2)c1N ; strain: MTCC 8184 ; value: 3.12 µg/mL
CCN(CC)C(=S)[S][Sn]([S]C(=S)N(CC)CC)([c]1ccccc1)[c]1ccccc1 ; strain: ATCC 18804 ; value: 40 µg/mL
CO[C@H]1C[C@H](O[C@H]2CC[C@@]3(C)C(=CC[C@H]4C5=CC(=O)[C@@H]6[C@@H](C)OC(=O)[C@]56CC[C@@H]43)C2)O[C@H](C)[C@H]1O ; strain: ATCC 2091 ; read by: broth dilution / turbidity ; value: >100 µg/mL
CCN(CC)C(=S)[S][Sn]([CH]1CCCCC1)([CH]1CCCCC1)[CH]1CCCCC1 ; strain: Drug-resistant isolate ; value: 75 µg/mL
COc1ccc(/C=C/C(=O)N2C/C(=C\c3ccccc3)C(=O)/C(=C/c3ccccc3)C2)cc1 ; strain: 1 clinical isolate ; value: >32 µg/mL
C/C=C\C(C)=C\[C@H](C)C(=O)C[C@H](O)CC1CC(=O)NC(=O)C1 ; strain: IFO 1594 ; value: >100 µg/mL
COc1ccc2nc(Sc3ccc(Cl)cc3)c(C3C(C#N)=C(N)Oc4c3c(=O)oc3ccc(C)cc43)cc2c1 ; strain: MTCC 227 ; read by: broth dilution ; value: 500 µg/mL
Clc1ccc(C(c2ccccc2)N2CCN(c3nc(Cl)nc(NC4CC4)n3)CC2)cc1 ; strain: MTCC 183 ; read by: agar ; value: 50 µg/mL
CC(C)=CCC/C(C)=C/CC/C(C)=C/CCCOS(=O)(=O)c1ccc(C)cc1 ; strain: CCH442 ; value: >400 µM
CN[C@@H]1[C@H](O[C@H]2[C@H](O[C@H]3[C@H](O)[C@@H](O)[C@H](N=C(N)N)[C@@H](O)[C@@H]3N=C(N)N)O[C@@H](C)[C@]2(O)C=O)O[C@@H](CO)[C@H](O)[C@H]1O ; strain: ATCC 10231 ; read by: visual reading ; value: 250 µg/mL
C[C@H]1[C@@H](OCCCCO)O[C@@H]2O[C@]3(C)CC[C@H]4[C@H](C)CC[C@@H]1C24OO3 ; strain: ATCC 90028 ; value: >50 µg/mL
c1cc2c[n+](c1)CCCCCCCCCCCCCCc1ccc[n+](c1)CCCCCCCCCCCC2 ; strain: ATCC 10231 ; value: 0.7 µg/mL
COc1ccc2nc(Sc3ccc(C)cc3)c(C3C(C#N)=C(N)Oc4c3c(=O)oc3ccc(C)cc43)cc2c1 ; strain: MTCC 227 ; read by: broth dilution ; value: >1000 µg/mL
CO[C@H]1C[C@H](O[C@H]2CC[C@@]3(C)C(=CC[C@@H]4[C@@H]3CC[C@]35C(=O)O[C@H](C)[C@H]3C(=O)C[C@]45O)C2)O[C@H](C)[C@H]1O ; strain: ATCC 2091 ; read by: broth dilution / turbidity ; value: >100 µg/mL
CC(C)c1cc2c(cc1O)[C@@]1(C)CCCC(C)(C)C1=C(O)C2=O ; value: >250 µg/mL
CN1CCC2=C(CCCC2CCc2ccc(F)cc2)C1 ; strain: 2005E ; value: 8 µg/mL
N#[N+]c1nc(-c2ccc(Cl)cc2Cl)[nH]c1C(=O)N1CCCC1 ; strain: ATCC 10231 ; value: 100 µg/mL
CN1CCC2=C(CCCC2CCc2cccc(Cl)c2)C1 ; strain: C316 ; value: 8 µg/mL
CCCCCCCC[n+]1ccccc1.[Cl-] ; strain: CCH442 ; value: >400 µM
CC(=O)N1CCN(c2ccc(OC[C@H]3CO[C@](Cn4ccnc4)(c4ccc(Cl)cc4Cl)O3)cc2)CC1 ; strain: 505 ; value: <2 µg/mL
c1ccc(CC2CCCc3cnccc32)cc1 ; strain: 2402E ; value: 31 µg/mL
Nc1nnc(-c2ncc([N+](=O)[O-])s2)s1 ; strain: E-3 ; value: 125 µg/mL
Cc1ccc(C(=O)/C=C/c2ccc(C(=O)O)cc2)cc1C ; strain: 1 clinical isolate ; value: >32 µg/mL
CO[C@H]1C[C@H](O[C@H]2CC[C@@]3(C)C(=CC[C@@H]4[C@@H]3CC[C@]35C(=O)O[C@H](C)[C@H]3C(=O)C[C@]45O)C2)O[C@H](C)[C@H]1O[C@H]1C[C@H](OC)[C@H](O[C@@H]2C[C@@H](OC)[C@@H](O)[C@H](C)O2)[C@@H](C)O1 ; strain: ATCC 2091 ; read by: broth dilution / turbidity ; value: 100 µg/mL
COc1cc2cc3c(c(-c4ccc5c(c4)OCO5)c2cc1OC)C(=O)OC3O ; value: ≥8 µg/mL
CCOC(=O)C1C(c2ccc(F)cc2)CC(c2ccccc2)=CC12NCCN2 ; value: 200 µg/mL
Cc1cnccc1CCCc1ccccc1 ; strain: 2381E ; value: 16 µg/mL
CCOC(=O)C1C(c2ccccc2)CC(c2ccccc2)=CC12NCCN2 ; value: 100 µg/mL
Cc1ccc2nc(Sc3ccc(Cl)cc3)c(C3C(C#N)=C(N)Oc4cc(C)oc(=O)c43)cc2c1 ; strain: MTCC 227 ; read by: broth dilution ; value: 200 µg/mL
CCCCCCCCCC[n+]1ccccc1.[Cl-] ; strain: CCH442 ; value: 200 µM
Fc1ccccc1N1CCN(c2nc(Cl)nc(NC3CC3)n2)CC1 ; strain: MTCC 183 ; read by: agar ; value: 25 µg/mL
CN(C/C=C/C#CC(C)(C)C)Cc1cccc2ccccc12 ; strain: RCPF Y-401/NCTC 885-653 ; read by: broth dilution / visual reading ; value: 6.25 µg/mL
CCCCCCCCC[C@@H](O)[C@H](C)N ; strain: MTCC 183 ; value: 9.9 µM
CCOC(=O)C1C(c2ccccc2)CC(c2ccc(OC)cc2)=CC12NCCN2 ; value: 12.5 µg/mL
Clc1ccc(COC(Cn2ccnc2)c2ccc(Cl)cc2Cl)c(Cl)c1 ; value: >10 µg/mL
CC1(C)NC(=S)NC1=S ; strain: CA10 ; value: >100 µg/mL
CC(C)C1=C[C@H]2C[C@]3(C=O)[C@@H]4CC[C@@H](C)[C@H]4C[C@@]2(CO[C@H]2C[C@@H]4OC(C)(C)O[C@@H]4[C@@H](C)O2)[C@]13C(=O)O ; strain: 4711E ; value: 0.015 µg/mL
CC(C)c1nc([N+]#N)c(C(=O)N2CCCC2)[nH]1 ; strain: ATCC 10231 ; value: >200 µg/mL
CC(=O)N1CCN(c2ccc(OC[C@H]3CO[C@](Cn4ccnc4)(c4ccc(Cl)cc4Cl)O3)cc2)CC1 ; strain: Isogenic isolate 2 MDR1 (12X) ; value: 0.004 µg/mL
COc1cc2c(cc1[C@@H](C)O)C=CC(C)(C)O2 ; strain: ATCC 10231 ; value: 100 µg/mL
CCN1CC(c2ccsc2)=NC(C#N)=C1C#N ; strain: RCPF Y-401/NCTC 885-653 ; read by: broth dilution / visual reading ; value: >100 µg/mL
COc1ccc(C(C)=O)cc1C(=O)CC(C)C ; strain: ATCC 10231 ; value: >400 µg/mL
Clc1nc(NC2CC2)nc(N2CCN(c3cccc(Cl)c3Cl)CC2)n1 ; strain: MTCC 183 ; read by: agar ; value: 100 µg/mL
C[C@H]1[C@@H](Oc2ccc(S)cc2)O[C@@H]2O[C@]3(C)CC[C@H]4[C@H](C)CC[C@@H]1C24OO3 ; strain: ATCC 90028 ; value: >50 µg/mL
C=CCc1ccc(O)c(-c2cc(CC=C)ccc2O)c1 ; read by: broth dilution ; value: >160 µg/mL
COc1ccc2nc(Sc3ccccc3)c(C3C(C#N)=C(N)Oc4c3c(=O)oc3ccccc43)cc2c1 ; strain: MTCC 227 ; read by: broth dilution ; value: 1000 µg/mL
CN1CCC2=C(CCCC2CCc2ccc(Cl)c(Cl)c2)C1 ; strain: 2381E ; value: 31 µg/mL
CN1C(=O)C(=O)N(C)C1=S ; strain: CA10 ; value: >100 µg/mL
Clc1ccc(CCC2CCCc3cnccc32)cc1 ; strain: 1208E ; value: 8 µg/mL
Clc1nc(NC2CC2)nc(N2CCN(c3ccccn3)CC2)n1 ; strain: MTCC 183 ; read by: agar ; value: 100 µg/mL
Nc1c(/C=N/NC(=O)c2ccncc2)cccc1CN1CCCCC1 ; strain: MTCC 8184 ; value: 12.5 µg/mL
CN1CCC2=C(CCCC2CCc2ccccc2)C1 ; strain: 1208E ; value: 31 µg/mL

Repeating the final 8 entries:

compound	strain	read by	value
C=CCc1ccc(O)c(-c2cc(CC=C)ccc2O)c1	-	broth dilution	>160 µg/mL
COc1ccc2nc(Sc3ccccc3)c(C3C(C#N)=C(N)Oc4c3c(=O)oc3ccccc43)cc2c1	MTCC 227	broth dilution	1000 µg/mL
CN1CCC2=C(CCCC2CCc2ccc(Cl)c(Cl)c2)C1	2381E	-	31 µg/mL
CN1C(=O)C(=O)N(C)C1=S	CA10	-	>100 µg/mL
Clc1ccc(CCC2CCCc3cnccc32)cc1	1208E	-	8 µg/mL
Clc1nc(NC2CC2)nc(N2CCN(c3ccccn3)CC2)n1	MTCC 183	agar	100 µg/mL
Nc1c(/C=N/NC(=O)c2ccncc2)cccc1CN1CCCCC1	MTCC 8184	-	12.5 µg/mL
CN1CCC2=C(CCCC2CCc2ccccc2)C1	1208E	-	31 µg/mL

Conditions beyond the fields shown may differ between rows.